Settings in all cases: human
The nature of series [1]: in vitro.
The nature of series [2]: in vitro. This is another data set of the same source.
Series [3] in a line: in vitro. This is another data set of the same source.
The nature of series [4]: in vitro. The source holds these as a separate data set.
Series [5] is described as follows: in vitro. The source holds these as a separate data set.
The nature of series [6]: in vitro. This is another data set of the same source.
A short description of series [7]: in vitro. This is another data set of the same source.
A short description of series [8]: in vitro. The source holds these as a separate data set.

In the case of `Cc1cc(C#N)cc(C)c1Oc1nc(Nc2ccc(C#N)cc2)nc(N)c1Br` [ETRAVIRINE], the selectivity ratio is more than 1320 in series [1]; more than 179 in series [2]; more than 1170 in series [3]; more than 221 in series [4]; more than 330 in series [5]; more than 144 in series [6]. Moreover, the selectivity ratio in series [7] is more than 69; in series [8] it was more than 278.

The values above are taken from ChEMBL document CHEMBL5331107 (J Med Chem, 2023).
